Key:
SARS CoV-2 PLpro [1] = molecular target: T1, SARS CoV-2 PLpro (Severe acute respiratory syndrome coronavirus 2 (2019-nCoV) (SARS-CoV-2), UniProt P0DTD1); experiment: PLpro primary assay (Z-RLRGG-AMC peptide substrate); format: biochemical; conditions: compared with GRL0617 / parent
SARS CoV-2 PLpro [2] = molecular target: T1, SARS CoV-2 PLpro; experiment: Surface Plasmon Resonance (SPR) binding assay; conditions: read-out: SPR binding assays KD; Table 11

SMILES: CNC(=O)C[C@@H](NC(=O)c1cc(N(C)C2CNC2)ccc1C)c1cccc2ccccc12
- PLpro inhibition potency, in words (SAR) (SARS CoV-2 PLpro [1]): almost completely inactive
- Kd (SARS CoV-2 PLpro [2]): > 1000 µM

Reference: patent publication US20240166598A1, “COMPOUNDS, COMPOSITIONS, AND METHODS OF USING THE SAME” (priority 2021, published 2024)
